Patent US20100029568A1, “TIGHTER-BINDING C-PEPTIDE INHIBITORS OF HIV-1 ENTRY” (priority 2007, published 2010)
Where two headings read alike, the source gives them in different places.

Tests used:
Assay type in all cases: cell-based
[1] = tested on: HIV-1 pseudotyped with V549E mutant Env (Res1, V38E) from strain HXB2
[2] = tested on: HIV-1 pseudotyped with Res 2 Env (HR1 mutant), HXB2; test: Viral infectivity assay, Res 2 Env of Table 1 (HR1 mutant); conditions: HOS-CD4-Les cells, read-out: IC50 (±SEM), Res 2 Env (HR1 mutant)
[3] = tested on: HIV-1 pseudotyped with Res 3 Env (HR2 mutant, N637K), HXB2
HIV-1 Res 2 (L33S) = conditions: Table 2

## CC[C@H](C)[C@H](NC(=O)[C@H](CC(C)C)NC(=O)[C@H](CO)NC(=O)[C@H](Cc1c[nH]cn1)NC(=O)[C@@H](NC(=O)[C@H](CC(C)C)NC(=O)[C@H](CO)NC(=O)[C@@H](NC(=O)[C@H](Cc1ccc(O)cc1)NC(=O)[C@H](CCCCN)NC(=O)[C@H](CC(N)=O)NC(=O)[C@@H](NC(=O)[C@H](CCC(=O)O)NC(=O)[C@H](CCCNC(=N)N)NC(=O)[C@H](CC(=O)O)NC(=O)[C@H](Cc1c[nH]c2ccccc12)NC(=O)[C@H](CCC(=O)O)NC(=O)[C@H](CCSC)NC(=O)[C@H](Cc1c[nH]c2ccccc12)NC(=O)[C@@H](NC(=O)[C@@H](NC(=O)[C@H](Cc1c[nH]cn1)NC(=O)CNC(=O)CN)[C@@H](C)O)[C@@H](C)O)[C@@H](C)CC)[C@@H](C)CC)[C@@H](C)CC)C(=O)N[C@@H](CCC(=O)O)C(=O)N[C@@H](CCC(=O)O)C(=O)N[C@@H](CO)C(=O)N[C@@H](CCC(N)=O)C(=O)N[C@@H](CC(N)=O)C(=O)N[C@@H](CCC(N)=O)C(=O)N[C@@H](CCC(N)=O)C(=O)N[C@@H](CCC(=O)O)C(=O)N[C@@H](CCCCN)C(=O)N[C@@H](CC(N)=O)C(=O)N[C@@H](CCC(=O)O)C(=O)N[C@@H](CCC(N)=O)C(=O)N[C@@H](CCC(=O)O)C(=O)N[C@@H](CC(C)C)C(=O)N[C@@H](CC(C)C)C(=O)NCC(=O)NCC(=O)N[C@@H](Cc1c[nH]cn1)C(=O)N[C@@H](Cc1c[nH]cn1)C(=O)N[C@@H](Cc1c[nH]cn1)C(=O)N[C@@H](Cc1c[nH]cn1)C(=O)N[C@@H](Cc1c[nH]cn1)C(=O)N[C@@H](Cc1c[nH]cn1)C(=O)O [C37-KYI]
[1]; Table 1, HOS-CD4-Les cells, read-out: IC50 (±SEM), Res 1 Env (HR1 mutant)
  IC50: 4.2 ± 1 nM
[1]; Table 2, read-out: IC50, Res 1 (V38E)
  IC50: 4.2 ± 1 nM
[2]
  IC50: 0.6 ± 0.1 nM
[3]; Table 1, HOS-CD4-Les cells, read-out: IC50 (±SEM), Res 3 Env (HR2 mutant)
  IC50: 4.1 ± 1 nM
[3]; Table 2, read-out: IC50, Res 3 (N123K/L204I)
  IC50: 4.1 ± 1 nM
HIV-1 Res 2 (L33S)
  IC50: 1 ± 0.2 nM
